Anti-infective test results gathered from many reports (values: NIAID ChemDB through PubChem).

All rows: host cell toxicity; cell line: MT-4; endpoint: CC50

Neighbouring rows are from separate reports. CCn: concentration that lowers growth or viability of the cells by n%.

{"SMILES": "CCOC(=O)c1cn(Cc2ccncc2)c(Sc2cc(F)cc(F)c2)c1C(C)C", "method": "MTT", "result": "42 µM"}
{"SMILES": "CN(C)c1cccc2c(S(=O)(=O)N3CCSC3c3ccncc3)cccc12", "result": ">5.56 µM"}
{"SMILES": "CN(C)c1ccc(NC2=NS(=O)(=O)NC(Cc3ccc4ccccc4c3)=C2)cc1", "method": "MTT", "result": "33 µM"}
{"SMILES": "CCOCn1c(Cc2ccccc2)c(C(C)C)c(=O)[nH]c1=O", "method": "MTT", "result": ">100 µM"}
{"SMILES": "CCc1c(CC23CC4CC(CC(C4)C2)C3)nc(SCC(=O)Nc2ccc(S(N)(=O)=O)cc2)[nH]c1=O", "method": "MTT / absorbance", "result": "12.25 µM"}
{"SMILES": "Cc1ccc(Sc2c(C(C)C)c(CO)cn2Cc2ccncc2)cc1", "method": "MTT", "result": ">200 µM"}
{"SMILES": "O=c1ccn(C[C@H]2C[C@@]2(CO)c2ccccc2)c(=O)[nH]1", "result": ">100 µg/mL"}
{"SMILES": "COc1ccc(Sc2nc(Cc3c(Cl)cccc3Cl)c(C)c(=O)[nH]2)cc1", "method": "MTT", "result": ">61.4 µM"}
{"SMILES": "Cn1ncc2c1S(=O)(=O)N(Cc1cccc(Cl)c1)C(=O)N2Cc1ccccc1F", "method": "MTT", "result": "257.8 µM"}
{"SMILES": "Cc1c(Cc2c(F)cccc2F)nc(Sc2ccccc2)[nH]c1=O", "method": "MTT", "result": ">72.7 µM"}
{"SMILES": "CC(C)c1c(CO)cn(Cc2ccc(N)cc2)c1Sc1cc(Cl)cc(Cl)c1", "method": "MTT", "result": ">200 µM"}
{"SMILES": "CCOC(=O)C(=O)CC(=O)c1cccc(Oc2ccnc(Nc3ccc(C#N)cc3)n2)c1", "method": "MTT", "result": ">14 µM"}
{"SMILES": "CC(=O)Oc1ccc(/C=C/C(=O)O[C@@H](C(=O)O)[C@@H](OC(=O)/C=C/c2ccc(OC(C)=O)c(OC(C)=O)c2)C(=O)O)cc1OC(C)=O", "result": "74 µM"}
{"SMILES": "Cn1ncc2c1S(=O)(=O)N(CCc1ccc(C(C)(C)C)cc1)C(=O)N2CCc1ccc(C(C)(C)C)cc1", "method": "MTT", "result": "7.1 µM"}
{"SMILES": "CCc1c(Cc2cc(C)cc(C)c2)n(COCC#CC#CCOCn2c(Cc3cc(C)cc(C)c3)c(CC)c(=O)[nH]c2=O)c(=O)[nH]c1=O", "method": "MTT", "result": "9 µM"}
{"SMILES": "O=c1[nH]cnc2c1ncn2C[C@@H](CO)OCP(=O)(O)O", "result": ">125 µM"}
{"SMILES": "C[C@@H]1[C@H](O)[C@H](C)[C@@]2(NC(=O)OC(C)(C)C)O[C@@H]1[C@@H]1O[C@@H]12", "method": "MTT", "result": ">440 µM"}
{"SMILES": "COc1ccc(N(C)C(=O)[C@@H]2Cc3cccc(c3)C/C=C\\c3[nH]c4ccc(F)cc4c3CC(=O)N2)cc1", "method": "ATP / luminescence", "result": ">44.3 µM"}
{"SMILES": "C[C@@H]1[C@@H]2O[C@]3(NC(=O)OC(C)(C)C)[C@@H](C)[C@H]1O[C@H]2[C@@H]3O", "method": "MTT", "result": ">88 µM"}
{"SMILES": "C[C@@H]1O[C@@H](O[C@H]2[C@H](O[C@H]3[C@H](O[C@H]4CC[C@@]5(C)[C@@H](CC[C@]6(C)[C@@H]5CC=C5[C@@H]7CC(C)(C)C[C@@H](O)[C@]7(C)CC[C@]56C)[C@@]4(C)CO)O[C@H](C(=O)O)[C@@H](O)[C@@H]3O)O[C@H](CO)[C@H](O)[C@@H]2O)[C@H](O)[C@H](O)[C@H]1O", "result": ">1000 µg/mL"}
{"SMILES": "O=S1(=O)N=C(Nc2ccc(Cl)cc2)C=C(Cc2cccc3ccccc23)N1", "method": "MTT", "result": "147 µM"}
{"SMILES": "CC(C)=CCc1c(O[C@@H]2C[C@H](CO)[C@@H](O)[C@H](O)[C@H]2O)cc(O)c2c(=O)c(O[C@@H]3O[C@@H](C)[C@H](O)[C@@H](O)[C@H]3O[C@@H]3O[C@H](CO)[C@@H](O)[C@H](O)[C@H]3O)c(-c3ccc(O)cc3)oc12", "result": ">500 µg/mL"}
{"SMILES": "Cn1ncc2c1S(=O)(=O)N(Cc1cccc(Cl)c1)C(=O)N2Cc1ccccc1Cl", "method": "MTT", "result": ">277.2 µM"}
{"SMILES": "Nc1ncnc2c1ncn2CCOCP(=O)(O)O", "result": "80 µM"}
{"SMILES": "O=S1(=O)NC(Cc2ccccc2)=CC(=NCc2ccccc2)N1", "method": "MTT", "result": "238 µM"}
{"SMILES": "COc1cc(C2SCCN2S(=O)(=O)c2cccc3c(N(C)C)cccc23)ccc1O", "result": "82.56 µM"}
{"SMILES": "Nc1nc(N)c2ncn(CCOCP(=O)(O)O)c2n1", "result": "18 µM"}
{"SMILES": "CCc1c(Cc2ccccc2C)n(COCC#CC#CCOCn2c(Cc3ccccc3C)c(CC)c(=O)[nH]c2=O)c(=O)[nH]c1=O", "method": "MTT", "result": "8 µM"}
{"SMILES": "CC(C)c1c(COC(N)=O)cn(Cc2ccncc2)c1Sc1cccc(Cl)c1", "method": "MTT", "result": ">200 µM"}
{"SMILES": "C[C@@H]1[C@@H]2O[C@]3(NC(=O)OC(C)(C)C)[C@@H](C)[C@H]1O[C@H]2[C@@H]3I", "method": "MTT", "result": ">63 µM"}
{"SMILES": "CC(C)(C)C(=O)SCCOP(=O)(CC[C@H]1CO[C@@H](n2cnc3c(N)ncnc32)[C@@H]1F)OCCSC(=O)C(C)(C)C", "method": "MTT", "result": "80 µM"}
{"SMILES": "Cn1ncc2c1S(=O)(=O)N(CCc1ccccc1)C(=O)N2CCc1ccccc1Br", "method": "MTT", "result": ">271.1 µM"}
{"SMILES": "O=S1(=O)N=C(Nc2ccc(F)cc2)C=C(Cc2ccccc2)N1", "method": "MTT", "result": "255 µM"}
{"SMILES": "Nc1ncnc2c1ncn2CCOCP(=O)(O)O", "result": "67 µM"}
{"SMILES": "CCN(C)C1=NS(=O)(=O)NC(Cc2ccc3ccccc3c2)=C1", "method": "MTT", "result": "195 µM"}
{"SMILES": "CC(C)=CCc1cc(C2CC(=O)c3ccc(O)c(CC=C(C)C)c3O2)ccc1O", "result": ">100 µg/mL"}
{"SMILES": "CCc1c(Cc2cc(C)cc(C)c2)n(COCC#Cc2ccc(C#CCOCn3c(Cc4cc(C)cc(C)c4)c(CC)c(=O)[nH]c3=O)cc2)c(=O)[nH]c1=O", "method": "MTT", "result": "85 µM"}
{"SMILES": "Cn1ncc2c1S(=O)(=O)N(Cc1cccc(Cl)c1)C(=O)N2Cc1ccccc1Br", "method": "MTT", "result": ">252.3 µM"}
{"SMILES": "Cc1cn([C@H]2C[C@H](N=[N+]=[N-])[C@@H](CO)O2)c(=O)[nH]c1=O", "result": "30 µM"}
{"SMILES": "Nc1ccn(C[C@H]2C[C@@]2(CO)c2ccccc2)c(=O)n1", "result": "<3.12 µg/mL"}
{"SMILES": "CC(C)(C)NC(=O)[C@@H]1CN(Cc2cccnc2)CCN1C[C@@H](O)C[C@@H](Cc1ccccc1)C(=O)N[C@H]1c2ccccc2C[C@H]1O", "method": "MTT", "result": ">1000 µM"}
{"SMILES": "Cc1cn([C@H]2C[C@H](N=[N+]=[N-])[C@@H](CO)O2)c(=O)[nH]c1=O", "method": "trypan blue", "result": "3.5 µg/mL"}
{"SMILES": "C[C@@H]1[C@H](O)[C@H](C)[C@@]2(NC(=O)OC(C)(C)C)O[C@@H]1[C@H]1O[C@H]12", "method": "MTT", "result": ">440 µM"}
{"SMILES": "Cc1ccc(C(=O)Nc2ccc(S(=O)(=O)O)c3cc(S(=O)(=O)O)cc(S(=O)(=O)O)c23)cc1NC(=O)c1cccc(NC(=O)Nc2cccc(C(=O)Nc3cc(C(=O)Nc4ccc(S(=O)(=O)O)c5cc(S(=O)(=O)O)cc(S(=O)(=O)O)c45)ccc3C)c2)c1", "result": ">500 µg/mL"}
{"SMILES": "Cc1cn([C@H]2C=C[C@@H](CO)O2)c(=O)[nH]c1=O", "method": "trypan blue", "result": "73 µM"}
{"SMILES": "O=C1N(Cc2ccccc2Cl)c2cscc2S(=O)(=O)N1Cc1ccccc1", "method": "MTT", "result": ">119 µM"}
{"SMILES": "COc1ccc(C2CC(=O)c3c(O)cc(O)cc3O2)c(CC=C(C)C)c1OC", "result": ">100 µg/mL"}
{"SMILES": "Cc1c(Cc2c(Cl)cccc2Cl)nc(Sc2ccccc2)[nH]c1=O", "method": "MTT", "result": ">66.3 µM"}
{"SMILES": "CC(C)(C)NC(=O)[C@@H]1C[C@@H]2CCCC[C@@H]2CN1C[C@@H](O)[C@H](Cc1ccccc1)NC(=O)[C@H](CC(N)=O)NC(=O)c1ccc2ccccc2n1", "method": "MTT", "result": ">100 µM"}
{"SMILES": "Cc1ccnc2c1NC(=O)c1cccnc1N2C1CC1", "method": "MTT", "result": ">2.77 µM"}
{"SMILES": "COC(=O)C1CSC(c2cccnc2)N1S(=O)(=O)c1cccc2c(N(C)C)cccc12", "result": ">1000 µM"}
{"SMILES": "CC(C)=CCc1c(CCCc2ccc(O)cc2O)cc(O)c(O)c1CC=C(C)C", "result": "9 µg/mL"}
{"SMILES": "O=S1(=O)N=C(Nc2ccccc2Cl)C=C(Cc2ccccc2)N1", "method": "MTT", "result": "182 µM"}
{"SMILES": "CCc1cc(NCc2nc3c(Cl)ccc(Cl)c3o2)c(=O)[nH]c1C", "result": ">60 µM"}
{"SMILES": "CC12OC[C@H]3O[C@H](C[C@@H]3N=[N+]=[N-])N1C(=O)NC(=O)[C@@]2(C)Br", "result": "90 µM"}
{"SMILES": "Nc1ncnc2c1ncn2[C@@H]1OC[C@H](/C=C/P(=O)(O)O)[C@H]1F", "method": "MTT", "result": "95 µM"}
{"SMILES": "COc1ccc(Sc2nc(Cc3c(F)cccc3F)c(C)c(=O)[nH]2)cc1", "method": "MTT", "result": "57.5 µM"}
{"SMILES": "Cn1ncc2c1S(=O)(=O)N(Cc1cccc(Cl)c1)C(=O)N2Cc1ccc(F)cc1", "method": "MTT", "result": "208.9 µM"}
{"SMILES": "CCc1c(Cc2cc(C)cc(C)c2)n(COCc2ccc(I)cc2)c(=O)[nH]c1=O", "method": "MTT", "result": "19 µM"}
{"SMILES": "O=c1cc(-c2ccc(O)cc2O)oc2cc(O)cc(O)c12", "result": "15 µg/mL"}
{"SMILES": "CCC12CCC3C4CCC(=O)C=C4CCC3C1CCC2(O)C#CC#CC1(O)CCC2C3CCC4=CC(=O)CCC4C3CCC21CC", "method": "MTT", "result": "28 µM"}
{"SMILES": "Cc1nc2ccccc2c(-c2ccc3c4c(ccnc24)[C@@H]2C[C@H]32)c1[C@H](OC(C)(C)C)C(=O)O", "method": "ATP", "result": ">53.2 µM"}
{"SMILES": "Nc1ncnc2c1ncn2C[C@H]1C[C@@]1(CO)c1ccccc1", "result": ">100 µg/mL"}
{"SMILES": "Nc1ncnc2c1ncn2C[C@@H](CO)OCP(=O)(O)O", "result": "52 µM"}
{"SMILES": "O=c1[nH]cnc2c1ncn2[C@H]1CC[C@@H](CO)O1", "method": "MTT", "result": ">50 µM"}
{"SMILES": "Cn1ncc2c1S(=O)(=O)N(Cc1cccc(Cl)c1)C(=O)N2Cc1ccc(Cl)cc1", "method": "MTT", "result": "246.1 µM"}
{"SMILES": "COc1ccc(C(=O)CSc2nc(CC34CC5CC(CC(C5)C3)C4)c(C)c(=O)[nH]2)cc1", "method": "MTT / absorbance", "result": ">285 µM"}
{"SMILES": "Cc1c(OC(=O)CCCCO[C@H]2O[C@H](CO)[C@@H](O)[C@H](O)[C@@H]2O)cccc1C(=O)N[C@@H](CSc1ccccc1)[C@H](O)CN1C[C@H]2CCCC[C@H]2C[C@H]1C(=O)NC(C)(C)C", "method": "MTT", "result": ">50 µM"}
{"SMILES": "Cn1ncc2c1S(=O)(=O)N(CCc1ccccc1)C(=O)N2CCc1ccc(Cl)cc1", "method": "MTT", "result": "53.9 µM"}
{"SMILES": "Cc1c(CC23CC4CC(CC(C4)C2)C3)nc(SCC(=O)Nc2ccc(S(N)(=O)=O)cc2)[nH]c1=O", "method": "MTT / absorbance", "result": "4.99 µM"}
{"SMILES": "O=c1[nH]cnc2c1ncn2CCOCP(=O)(O)O", "result": ">625 µM"}
{"SMILES": "Cc1ccnc2c1NC(=O)c1cccnc1N2C1CC1", "result": ">100 µM"}
{"SMILES": "O=S1(=O)N=C(Nc2ccc(F)c(F)c2F)C=C(Cc2ccccc2)N1", "method": "MTT", "result": "198 µM"}
{"SMILES": "CCOC(=O)c1cn(Cc2ccncc2)c(Sc2cccc(C)c2)c1C(C)C", "method": "MTT", "result": "70 µM"}
{"SMILES": "Cc1c(Cc2c(F)cccc2F)nc(Sc2ccc(F)cc2F)[nH]c1=O", "method": "MTT", "result": ">65.8 µM"}